In patent US20110003337A1 one finds IC50 of cell growth inhibition (MTT assay, 48 h, A431/CD30 cells) data, which are given here for 1 substance.

The target in this assay is CD30 expressed on A431/CD30 transfected cells (human) (UniProt P28908). Put plainly: cell-based or functional assay.

Take “T427(di)-PE38 (T427 Inclonal with PE38 fused to the antibody heavy chain) (from UniProt P11439 278-638)”: the IC50 of cell growth inhibition (MTT assay, 48 h, A431/CD30 cells) worked out at 0.03 nM.
